Results deposited as PubChem BioAssay AID624099 (ICCB-Longwood, 2012).

Assay: 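Knock-downs relieving repression by E2 of an HPV18 LCR luciferase reporter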 (primary screen)
System: human C33A cervical carcinoma cells (HPV-negative) stably expressing BPV1 E2 and an HPV18 LCR luciferase reporter
Reagent: siRNA pool against human genes, 40 nM
Duration: 72 h
Detection: 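HPV18 LCR reporter light per well, converted to plate-wise z-scores that exclude control wells, and averaged over triplicate plates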
Reading the numbers: mean z-score and z-score: higher = stronger reporter signal, weaker E2 silencing
Hit rule: 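Mean z ≥ 2 together with z ≥ 2 in two or more of the three replicates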
Here is a random part of about 21,000 reagents tested. 497 of all reagents (2.4%) were called active. 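Higher z means weaker E2 silencing; only reporter increases were scored, and knock-downs that hurt cell survival may mask genuine repressor factors.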 A number with no mark means an inactive call.

Against CHRM5 (cholinergic receptor muscarinic 5), the values are mean z-score 0.28; z-score, replicate A = 0.23; z-score, replicate B = 0.29; z-score, replicate C = 0.33.
With knock-down of RHBG (Rh family B glycoprotein), the screen gave mean z-score 0.06; z-score, replicate A = 0; z-score, replicate B = 0.45; z-score, replicate C = -0.27.
ST3GAL1 (ST3 beta-galactoside alpha-2,3-sialyltransferase 1) gave mean z-score 0.51; z-score, replicate A = -0.21; z-score, replicate B = 0.78; z-score, replicate C = 0.98.
Silencing of IFNA5 (interferon alpha 5) gave: mean z-score -0.68; z-score, replicate A = -0.63; z-score, replicate B = -0.68; z-score, replicate C = -0.74.
With knock-down of OR4K2 (olfactory receptor family 4 subfamily K member 2), the record shows mean z-score -1.47; z-score, replicate A = -1.94; z-score, replicate B = -1.1; z-score, replicate C = -1.39.
Knock-down of FAM181B (family with sequence similarity 181 member B) came out at: mean z-score 0.5; z-score, replicate A = 0.42; z-score, replicate B = 0.53; z-score, replicate C = 0.55.
Against KIF5B (kinesin family member 5B) the deposit lists mean z-score -0.05; z-score, replicate A = -0.04; z-score, replicate B = -0.03; z-score, replicate C = -0.07.
Silencing of MARK2 (microtubule affinity regulating kinase 2) gave: mean z-score -2.6; z-score, replicate A = -0.96; z-score, replicate B = -6.03; z-score, replicate C = -0.81.

No new results follow: 2 of the entries above.
FAM181B (family with sequence similarity 181 member B): mean z-score = 0.5; z-score, replicate A = 0.42; z-score, replicate B = 0.53; z-score, replicate C = 0.55
KIF5B (kinesin family member 5B): mean z-score = -0.05; z-score, replicate A = -0.04; z-score, replicate B = -0.03; z-score, replicate C = -0.07

Next reagents follow.
Knock-down of ARMCX3 (armadillo repeat containing X-linked 3) resulted in: mean z-score 0.47; z-score, replicate A = 0.54; z-score, replicate B = 0.18; z-score, replicate C = 0.69.
After knock-down of SLIT1 (slit guidance ligand 1), the screen gave mean z-score 0.61; z-score, replicate A = 0.62; z-score, replicate B = 0.4; z-score, replicate C = 0.83.
For PRSS33 (serine protease 33), the values are mean z-score -0.04; z-score, replicate A = -0.23; z-score, replicate B = 0.06; z-score, replicate C = 0.03.
GMFB (glia maturation factor beta) showed mean z-score 0.47; z-score, replicate A = 0.65; z-score, replicate B = 0.32; z-score, replicate C = 0.45.
RNF148 (ring finger protein 148) gave mean z-score 0.47; z-score, replicate B = 0.44; z-score, replicate C = 0.5.
Against DKFZP586K1520 (retired record), the entry reads mean z-score -0.1; z-score, replicate A = -0.42; z-score, replicate B = -0.03; z-score, replicate C = 0.14.
Knock-down of TBCA (tubulin folding cofactor A) gave: mean z-score -0.23; z-score, replicate A = 0.19; z-score, replicate B = -0.22; z-score, replicate C = -0.65.
With knock-down of EXOSC8 (exosome component 8), the screen gave mean z-score 0.6; z-score, replicate A = 0.66; z-score, replicate B = 0.8; z-score, replicate C = 0.34.
After knock-down of LINC02783 (long independently transcribed non-coding RNA 2783) the results were mean z-score 1.95; z-score, replicate A = 2.77; z-score, replicate B = 1.44; z-score, replicate C = 1.63.
After knock-down of PDHB (pyruvate dehydrogenase E1 subunit beta), the record shows mean z-score 0.89; z-score, replicate A = 0.58; z-score, replicate B = 1.17; z-score, replicate C = 0.93.
Against GJC1 (gap junction protein gamma 1) the deposit lists mean z-score 0.7; z-score, replicate A = 0.65; z-score, replicate B = 0.55; z-score, replicate C = 0.89.
Depletion of PIWIL1 (piwi like RNA-mediated gene silencing 1) resulted in: mean z-score -1.09; z-score, replicate A = -1.15; z-score, replicate B = -1.02; z-score, replicate C = -1.11.
After knock-down of RUNX1-IT1 (RUNX1 intronic transcript 1), the screen gave mean z-score 1.73; z-score, replicate A = 1.91; z-score, replicate B = 1.3; z-score, replicate C = 1.98.
